From patent publication US11879893B2, “Rapid detection test for SARS-CoV-2” (priority 2020, dated 2024)

Biological target: T1, 3CL (Severe acute respiratory syndrome coronavirus 2, UniProt P0DTC1)
T1 construct: 6xHIS-tag (N); TEV-protease cleavage site (ENLYFQG) (N); made in house; host or cells: Rosetta BL21 E. coli, pET14b
Type: biochemical, SARS-CoV-2
Details: RT for 5 hrs, 0.2 mg/mL

Question: For BSA, which “enzyme activity after incubation with reaction stabilizer” value is on record?
Answer: retained its activity
